# HIV-1 LAI Vif substitutions under APOBEC3G selection

Reference: Langley et al. 2025, preprint, doi:10.1101/2025.10.20.683452.

Scanned stretch, residues 12 to 115 of Vif from HIV-1 LAI (a laboratory-adapted subtype B strain):
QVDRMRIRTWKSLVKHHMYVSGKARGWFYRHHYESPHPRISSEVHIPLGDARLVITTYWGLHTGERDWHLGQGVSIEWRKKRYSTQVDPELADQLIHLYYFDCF

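A pool of vif mutants was passaged twice, 72 h each, on SupT1 cells that express APOBEC3G. Each of three replicates was sequenced after round two and set against the merged round-one pool.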

Values are log2 enrichment relative to wild type (0); lower means weaker defence against APOBEC3G and poorer growth. A change reads original residue, position, new residue. The median of three replicates is given, with the replicates in brackets. Input reads are the counts in the merged round-one pool, before selection. Not every substitution is listed. Replicates agree only moderately (rank correlation about 0.4-0.65); scores from under about 50 input reads tend to be too high. Positive scores are uncertain; some enriched variants did not exclude APOBEC3G in a separate test.

| substitution | input reads | log2 enrichment (median) |
|---|---|---|
| Q12A | 355 | -3.13 (-4.24 -2.48 -3.13) |
| Q12E | 481 | -2.18 (-2.18 1.18 -2.21) |
| Q12H | 448 | -1.42 (-1.92 1.21 -1.42) |
| Q12I | 448 | -2.70 (-2.70 -4.48 -2.38) |
| Q12K | 39 | 0.51 (0.51 3.82 -0.80) |
| Q12L | 21 | 1.39 (1.39 -0.09 5.82) |
| Q12N | 1367 | 0.13 (-0.85 1.16 0.13) |
| Q12R | 31 | -0.64 (0.84 -0.64 -1.21) |
| Q12S | 519 | -1.52 (-1.52 0.70 -2.09) |
| Q12T | 479 | -2.82 (-2.80 -3.52 -2.82) |
| Q12W | 578 | -0.55 (2.77 -2.13 -0.55) |
| Q12Y | 875 | -3.43 (-3.43 -4.28 -2.64) |
| V13D | 464 | -2.60 (-2.77 -2.30 -2.60) |
| V13E | 361 | -1.11 (-1.11 1.60 -1.80) |
| V13F | 446 | -0.75 (-0.68 -2.39 -0.75) |
| V13G | 306 | -0.77 (-0.77 2.03 -1.23) |
| V13I | 881 | -1.72 (-1.72 0.02 -2.85) |
| V13K | 411 | 0.06 (0.29 -2.08 0.06) |
| V13L | 431 | -0.29 (-0.29 0.94 -0.80) |
| V13N | 512 | -1.61 (-1.61 0.26 -2.92) |
| V13Q | 668 | -0.84 (-0.48 -2.31 -0.84) |
| V13R | 61 | 0.62 (0.60 4.11 0.62) |
| V13T | 148 | -0.52 (-0.33 -2.89 -0.52) |
| D14A | 7040 | -0.63 (-0.63 -0.98 0.08) |
| D14C | 41 | -0.40 (-0.40 4.66 -0.88) |
| D14E | 424 | -1.44 (-1.44 1.52 -1.80) |
| D14H | 1145 | -1.58 (-1.58 -2.83 -1.42) |
| D14I | 139 | -0.70 (4.67 -0.83 -0.70) |
| D14L | 892 | 0.49 (1.97 0.49 -1.32) |
| D14N | 785 | -2.31 (-2.21 -3.71 -2.31) |
| D14P | 505 | -0.78 (-0.78 1.05 -1.85) |
| D14R | 880 | -1.79 (-2.49 -1.79 -1.68) |
| D14S | 438 | -2.04 (-2.04 -3.51 -1.96) |
| D14T | 548 | -0.57 (-0.57 0.51 -0.69) |
| D14Y | 404 | -0.78 (-0.88 -0.78 1.26) |
| R15A | 355 | -1.60 (-1.60 1.34 -1.66) |
| R15C | 470 | -4.55 (-6.25 -4.55 -2.46) |
| R15F | 29 | 2.50 (1.45 4.31 2.50) |
| R15G | 477 | -2.48 (-1.88 -2.78 -2.48) |
| R15K | 337 | -1.01 (-1.01 -1.30 1.61) |
| R15L | 471 | -2.31 (-2.55 -0.22 -2.31) |
| R15P | 437 | -0.72 (-0.42 -2.47 -0.72) |
| R15Q | 1366 | -2.29 (-2.29 -0.92 -2.88) |
| R15S | 75 | 0.09 (0.09 -1.52 0.18) |
| R15W | 458 | -0.94 (-0.54 -2.66 -0.94) |
| M16A | 669 | -2.30 (-1.62 -3.64 -2.30) |
| M16D | 276 | -2.30 (-2.30 -4.68 -1.24) |
| M16F | 691 | -0.10 (-0.10 -2.24 4.34) |
| M16G | 482 | -2.60 (-2.18 -4.21 -2.60) |
| M16I | 102 | 0.61 (0.61 -0.77 3.73) |
| M16K | 117 | -0.33 (-0.33 -0.64 -0.13) |
| M16N | 32 | 0.01 (3.69 -4.40 0.01) |
| M16R | 478 | -2.97 (-1.51 -3.53 -2.97) |
| M16S | 366 | -3.48 (-1.48 -3.50 -3.48) |
| M16V | 61 | 0.37 (0.40 -1.23 0.37) |
| R17D | 262 | 3.81 (3.81 -1.44 4.02) |
| R17E | 507 | -1.70 (-1.70 1.26 -1.75) |
| R17I | 406 | -3.02 (-2.32 -3.96 -3.02) |
| R17K | 2386 | -1.03 (-1.03 -2.55 0.07) |
| R17N | 38 | 1.32 (0.18 3.74 1.32) |
| R17P | 119 | 0.14 (0.14 4.08 -0.80) |
| R17Q | 438 | -2.04 (-2.04 -4.07 -1.73) |
| R17S | 68 | -0.65 (-0.65 -0.96 1.45) |
| R17T | 57 | -1.33 (2.29 -2.42 -1.33) |
| R17V | 406 | -2.85 (-2.85 -5.24 -1.62) |
| R17W | 685 | -0.75 (-0.75 -2.36 -0.75) |
| R17Y | 951 | -3.61 (-3.16 -4.15 -3.61) |
| I18C | 813 | -1.41 (-1.10 -2.98 -1.41) |
| I18D | 465 | -2.59 (-2.13 -3.72 -2.59) |
| I18E | 762 | -2.85 (-2.85 -3.40 -2.74) |
| I18F | 455 | -3.18 (-1.55 -3.25 -3.18) |
| I18H | 409 | -0.25 (-0.25 1.25 -1.96) |
| I18K | 90 | 0.21 (-1.54 3.83 0.21) |
| I18L | 2901 | -1.02 (0.48 -2.70 -1.02) |
| I18N | 486 | -2.07 (-1.89 -2.07 -2.21) |
| I18R | 69 | 0.43 (0.43 4.13 -0.76) |
| I18S | 22 | -1.85 (-1.85 -3.87 -0.72) |
| I18T | 21 | 0.54 (0.54 1.24 -2.24) |
| I18V | 611 | 0.57 (-0.46 0.57 3.49) |
| I18W | 530 | -3.47 (-2.50 -3.47 -3.69) |
| R19A | 178 | -0.43 (3.40 -1.98 -0.43) |
| R19C | 385 | -3.30 (-3.61 -3.30 -2.15) |
| R19D | 41 | 0.98 (0.98 3.93 0.27) |
| R19F | 1427 | 0.29 (2.15 -1.87 0.29) |
| R19H | 438 | -2.50 (-2.42 -3.61 -2.50) |
| R19I | 308 | -1.37 (-1.37 -2.58 -1.12) |
| R19K | 30 | 1.17 (3.34 -2.70 1.17) |
| R19L | 686 | 0.75 (0.75 4.22 0.28) |
| R19N | 867 | -2.58 (-2.58 -1.16 -4.11) |
| R19Q | 575 | -0.79 (-0.79 -2.26 2.68) |
| R19S | 177 | 1.65 (0.23 1.65 3.28) |
| R19V | 385 | -1.27 (-1.69 1.30 -1.27) |
| R19W | 388 | -2.78 (-2.78 -4.26 -1.55) |
| R19Y | 1287 | -3.42 (-2.47 -3.42 -3.62) |
| T20A | 56 | 1.15 (0.30 3.23 1.15) |
| T20C | 190 | 2.02 (4.28 -1.20 2.02) |
| T20D | 1045 | -1.94 (-2.32 0.64 -1.94) |
| T20F | 220 | -0.60 (-0.60 2.53 -1.05) |
| T20G | 433 | -2.85 (-1.71 -4.03 -2.85) |
| T20H | 1051 | -1.09 (-1.31 -1.09 1.08) |
| T20I | 426 | -2.44 (-2.17 -3.57 -2.44) |
| T20K | 148 | 1.11 (0.20 3.53 1.11) |
| T20L | 472 | -2.77 (-2.32 -4.15 -2.77) |
| T20N | 30 | 0.54 (0.54 0.47 1.67) |
| T20P | 625 | -1.79 (1.94 -2.92 -1.79) |
| T20Q | 1255 | -0.31 (-0.36 -0.31 1.01) |
| T20R | 88 | 1.15 (1.15 0.11 3.69) |
| T20V | 64 | 1.17 (1.17 4.32 -0.34) |
| T20W | 982 | -0.94 (-0.94 -3.07 2.38) |
| W21A | 498 | -2.38 (-2.39 0.15 -2.38) |
| W21C | 865 | -1.55 (-0.83 -2.19 -1.55) |
| W21E | 29 | -2.67 (1.69 -2.67 -2.69) |
| W21F | 607 | -1.03 (-0.86 -2.21 -1.03) |
| W21G | 84 | 0.17 (0.17 -1.38 3.92) |
| W21H | 370 | -0.62 (-0.66 1.34 -0.62) |
| W21I | 307 | -1.32 (-1.35 1.28 -1.32) |
| W21K | 467 | -3.04 (-3.04 -3.72 -1.55) |
| W21L | 451 | -1.63 (-1.63 0.22 -2.24) |
| W21N | 117 | 0.64 (0.64 -2.34 3.98) |
| W21P | 190 | -1.21 (-1.21 -2.09 -0.63) |
| W21Q | 263 | 0.81 (3.98 -1.80 0.81) |
| W21S | 815 | -0.82 (-0.82 0.94 -1.65) |
| W21T | 229 | 1.01 (3.92 -0.77 1.01) |
| W21V | 304 | -2.89 (-1.50 -6.04 -2.89) |
| W21Y | 443 | -1.61 (-1.61 0.18 -2.70) |

The opening 6 entries, copied out:

Q12A (input reads 355) read -3.13 (-4.24 -2.48 -3.13).
Q12E (input reads 481) read -2.18 (-2.18 1.18 -2.21).
Q12H (input reads 448) read -1.42 (-1.92 1.21 -1.42).
Q12I (input reads 448) read -2.70 (-2.70 -4.48 -2.38).
Q12K (input reads 39) read 0.51 (0.51 3.82 -0.80).
Q12L (input reads 21) read 1.39 (1.39 -0.09 5.82).